Measured values from PMC13028475, “Discovery and cryoEM structure of FPM13, a periplasmic metalloprotein unique to Francisella” (2026).

Biological target: FPM13 (FTN_1118), FPM13-ALFA (Francisella tularensis, UniProt A0Q6Y9)
Test: fluorescence decrease on thiol re-oxidation to cystine (ex […] nm, em […]-550 nm)
Conditions: 10 µM BODIPY-cysteine; TBS; 0.08 mg/mL FPM13-ALFA (Figure 8A legend); TCEP-resin removed

## Cc1cc(C)n2c1C=C1C=CC(CCC(=O)N[C@@H](CS)C(=O)O)=[N+]1[B-]2(F)F
  fluorescence decrease on thiol re-oxidation to cystine (ex 475 nm, em 500-550 nm): the wild-type FPM13 rapidly re-oxidized the cysteine to cystine
